Article PMC8706149 (International Journal of Molecular Sciences, 2021)

Assays:
[1] = Steady-state fluorescence in buffer and water/organic solvent mixtures; format: physicochemical; conditions: 25 °C
[2] = tested on: POPC/POPG liposomes; assay: Steady-state fluorescence in the presence of POPC/POPG liposomes; format: binding; conditions: POPC/POPG 4:1 LUVs
[3] = tested on: POPC liposomes; assay: Steady-state fluorescence in the presence of POPC liposomes; format: binding; conditions: POPC LUVs
[4] = Quantum-yield determination; format: physicochemical
[5] = tested on: SDS micelles; assay: Steady-state fluorescence in the presence of SDS micelles; format: binding; conditions: 25 mM SDS in 10 mM NaP pH 7.4, peptide 2 µM, 25 °C
[6] = lipid-to-peptide ratio 200, 10 mM NaP pH 7.4
[7] = emission maximum, lipid-to-peptide ratio 200, 10 mM NaP pH 7.4, peptide 2.2–[…]

## 1-[2-(maleimido)ethyl]-4-[5-(4-methoxyphenyl)-2-oxazolyl]pyridinium-labeled GKY20 [PyMPO-(C)GKY20]
[1]; NaP:isopropanol 50% v:v, peptide 2 µM
  Blue-shift with respect to the λmax in NaP, IPA 50%: 5 nm
[1]; NaP:methanol 50% v:v, peptide 2 µM
  Blue-shift with respect to the λmax in NaP, MeOH 50%: 0 nm
[1]; emission maximum, 10 mM sodium phosphate pH 7.4, peptide 2 µM, ex. 330 nm (Luc, mLuc), 363 nm (aLuc), 408 nm (PyMPO)
  λmax (nm) NaP pH 7.4: 563 nm
[1]; emission maximum, NaP:isopropanol 50% v:v, peptide 2 µM
  λmax (nm) IPA 50%: 558 nm
[1]; emission maximum, NaP:methanol 50% v:v, peptide 2 µM
  λmax (nm) MeOH 50%: 563 nm
[2]; [6]
  Blue-shift with respect to the λmax in NaP, POPC + POPG: 28 nm
[2]; [7]
  λmax (nm) POPC + POPG: 535 nm
[3]; [6]
  Blue-shift with respect to the λmax in NaP, POPC: 22 nm
[3]; [7]
  λmax (nm) POPC: 541 nm
[4]; ratio QY in isopropanol:NaP (1:1) / QY in NaP pH 7.4
  QY variation relative to NaP pH 7.4, IPA 50%: 4.66
[4]; relative quantum yield, 10 mM phosphate pH 7.4, standard fluorescein (coumarin-6 for mLuc), errors ≤ 5%
  QY NaP pH 7.4: 0.080
[4]; relative quantum yield, isopropanol:NaP pH 7.4 (1:1, v/v), errors ≤ 5%
  QY IPA 50%: 0.373
[5]
  Blue-shift with respect to the λmax in NaP, SDS (25 mM): 7 nm
[5]; emission maximum
  λmax (nm) SDS (25 mM): 556 nm
